This test deals with PV-2C-ΔN C323A (human poliovirus 1 (strain Mahoney)). The test can be described thus: SEC.

The substance PV-2C-ΔN C323A (domain or fragment) displayed a stoichiometry N of 4.

One may read the stoichiometry N as a count of units in the complex or per binding partner.

The values above are taken from PMC6166989 (2018).
